## Sequence variants of PSTVd loop 27 after infection

From the data files of Wu et al. 2024, doi:10.1371/journal.ppat.1012142.

The pool varies loop 27 of the PSTVd intermediate strain in the pattern UNNNNA; wild type is UUUUCA (5' to 3', with the closing base pair).

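Three N. benthamiana plants were inoculated with the whole mutant pool. Samples came from the inoculated region at 5 days, the leaf margin at 10 and upper systemic leaves at 12.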

Values are reads per thousand in the sample; higher means more abundant, 0 means not found.
Each value is the mean of three plants.
"Pool" is the share in the plasmid pool used as inoculum, on the same scale.
The inoculated region was read from the minus strand, the other sites from the plus strand.
The authors trace changes outside the varied positions to PCR and sequencing errors or to mutation in the plant; presence does not show that a variant is infectious alone.

- UUUGGA (pool 6.52) -> inoculated region 6.70; leaf margin 0.629; systemic leaves 0.106
- UCGUAA (pool 2.85) -> inoculated region 4.48; leaf margin 1.02; systemic leaves 0.123
- UAGUGA (pool 2.70) -> inoculated region 2.27; leaf margin 0.447; systemic leaves 0.0343
- UGUUAA (pool 6.13) -> inoculated region 6.91; leaf margin 0.636; systemic leaves 0.342
- UUACCC (pool 0.0272) -> inoculated region 0; leaf margin 0; systemic leaves 0
- UUAAAA (pool 3.83) -> inoculated region 1.36; leaf margin 0.403; systemic leaves 0.0496
- ACAUCA (pool 0.0136) -> inoculated region 0; leaf margin 0; systemic leaves 0
- UGCAGA (pool 2.17) -> inoculated region 3.24; leaf margin 0.100; systemic leaves 0.0552
- UAAUCA (pool 1.53) -> inoculated region 1.74; leaf margin 0.256; systemic leaves 0.0573
- UGUGAA (pool 6.08) -> inoculated region 5.50; leaf margin 0.441; systemic leaves 0.0687
- UGCACA (pool 0.448) -> inoculated region 0.217; leaf margin 0.0101; systemic leaves 0
- UUAGAA (pool 6.44) -> inoculated region 2.40; leaf margin 0.300; systemic leaves 0.0639
- UCCAAA (pool 2.40) -> inoculated region 0.983; leaf margin 0.120; systemic leaves 0.0454
- UAUCCA (pool 0.978) -> inoculated region 2.05; leaf margin 0.404; systemic leaves 0.0224
- ACUGAA (pool 0.0136) -> inoculated region 0; leaf margin 0; systemic leaves 0
- UGGGCA (pool 5.45) -> inoculated region 1.29; leaf margin 0.0802; systemic leaves 0.0607
- ACACAA (pool 0.0136) -> inoculated region 0; leaf margin 0; systemic leaves 0
- UGAGCA (pool 5.65) -> inoculated region 2.07; leaf margin 0.0676; systemic leaves 0.0879
- UUGUAA (pool 5.09) -> inoculated region 13.2; leaf margin 1.78; systemic leaves 0.559
- AAAACA (pool 0.0136) -> inoculated region 0; leaf margin 0; systemic leaves 0
- UAUAUA (pool 3.42) -> inoculated region 0.847; leaf margin 0.103; systemic leaves 0.0481
- UGUCGA (pool 2.78) -> inoculated region 3.65; leaf margin 0.359; systemic leaves 0.0489
- UUCCCA (pool 0.937) -> inoculated region 1.03; leaf margin 0.252; systemic leaves 0.0107
- AAGCUA (pool 0.0136) -> inoculated region 0; leaf margin 0; systemic leaves 0
- UUAAAC (pool 0.340) -> inoculated region 0.0722; leaf margin 0; systemic leaves 0
- UAUUCG (pool 0.0136) -> inoculated region 0; leaf margin 0; systemic leaves 0
- UAGCAA (pool 2.66) -> inoculated region 2.85; leaf margin 0.109; systemic leaves 0.0692
- UAUUCA (pool 2.74) -> inoculated region 5.42; leaf margin 1.60; systemic leaves 0.813
- UAUGCA (pool 5.80) -> inoculated region 4.98; leaf margin 0.732; systemic leaves 0.135
- UAGCAC (pool 0.0136) -> inoculated region 0; leaf margin 0; systemic leaves 0
- AUCUAA (pool 0.0136) -> inoculated region 0.00630; leaf margin 0; systemic leaves 0
- UCGCGA (pool 3.90) -> inoculated region 1.85; leaf margin 0.851; systemic leaves 0.00536
- UCGUUA (pool 4.25) -> inoculated region 2.57; leaf margin 0.258; systemic leaves 0.0406
- UAGGCA (pool 2.05) -> inoculated region 0.952; leaf margin 0.133; systemic leaves 0.0352
- AUGGUA (pool 0.0136) -> inoculated region 0.00588; leaf margin 0; systemic leaves 0
- UUCCAA (pool 1.36) -> inoculated region 0.631; leaf margin 0; systemic leaves 0
- UGUCUA (pool 5.64) -> inoculated region 7.38; leaf margin 1.40; systemic leaves 0.0766
- UACGGA (pool 1.81) -> inoculated region 0.944; leaf margin 0.0747; systemic leaves 0.00656
- UUCUGA (pool 2.57) -> inoculated region 4.50; leaf margin 0.170; systemic leaves 0.0738

The opening 5 entries, copied out:

* UUUGGA (pool 6.52): inoculated region 6.70; leaf margin 0.629; systemic leaves 0.106
* UCGUAA (pool 2.85): inoculated region 4.48; leaf margin 1.02; systemic leaves 0.123
* UAGUGA (pool 2.70): inoculated region 2.27; leaf margin 0.447; systemic leaves 0.0343
* UGUUAA (pool 6.13): inoculated region 6.91; leaf margin 0.636; systemic leaves 0.342
* UUACCC (pool 0.0272): inoculated region 0; leaf margin 0; systemic leaves 0

Wild type was 39.4 per thousand in the pool and the most common sequence in every sample (inoculated region 155, 124, 130; leaf margin 823, 907, 920; systemic leaves 805, 787, 933).
With 30,013-65,426 reads a sample, very low values are single reads.